Reference: publication PMC9364801, “APOBEC3 selects V179I in HIV-1 reverse transcriptase to provide selective advantage for non-nucleoside reverse transcriptase inhibitor-resistant mutants” (Frontiers in virology, 2022)

Target: HIV-1 reverse transcriptase (RT), HIV-1NL4-3 (Human immunodeficiency virus type 1 (NEW YORK-5 ISOLATE), UniProt P12497)
Set-up: gene gag-pol
Conditions: TZM-bl cells, MOI 0.02, 48 h; virus infectivity read-out; NNRTI pocket

Cc1cc(/C=C/C#N)cc(C)c1Nc1ccnc(Nc2ccc(C#N)cc2)n1 [RPV, rilpivirine]
RPV EC50: 0.19 ± 0.06 nM
